Values quoted from earlier work in patent US7868028B2 (priority 2002, dated 2011).

Legend:
rat = conditions: intrathecal, dose approximating 10×ED50 for block of the tail-flick reflex; cited from earlier work
neural elements = conditions: rat, intrathecal, 10×ED50 for block of tail-flick reflex; Sakura et al. 1995; cited from earlier work

NC1=N[C@H](O)[C@H]2[C@H]3O[C@]4(O)O[C@@H]([C@@H](O)[C@@]2(N1)[C@@H]4O)[C@]3(O)CO [TTX, tetrodotoxin]
duration of neuronal block (rat): between two and four days
toxicity to neural elements (neural elements): indistinguishable from saline
